From patent publication US8062607B2, “Lens care methods and kits” (Novartis AG, priority 2006, dated 2011)

Experiment: Staining of contact lenses soaked in dye solutions
Conditions: all tested lenses; dye solution in Aquify MPS or PBS

Question: With Nc1c(S(=O)(=O)[O-])cc(NC2CCCCC2)c2c1C(=O)c1ccccc1C2=O.[Na+] [Acid Blue 62] as the compound, how does the staining of lenses read?
Answer: stain all tested lenses

Question: Which staining of lenses does the source give for Nc1c(S(=O)(=O)[O-])cc(Nc2cccc(S(=O)(=O)CCOS(=O)(=O)[O-])c2)c2c1C(=O)c1ccccc1C2=O.[Na+].[Na+] [Remazol Brilliant Blue] here?
Answer: do not stain any tested lenses

Question: With CCN(Cc1cccc(S(=O)(=O)[O-])c1)c1ccc(C(=C2C=CC(=[N+](CC)Cc3cccc(S(=O)(=O)[O-])c3)C=C2)c2ccccc2S(=O)(=O)[O-])cc1.[Na+].[Na+] [FD&C Blue No 1] as the compound, how does the staining of lenses read?
Answer: do not stain any tested lenses

Some entries repeat one wording, which the source may state once for all of them.
